# Source: PubChem BioAssay AID504761 (Drosophila RNAi Screening Center, 2011)
# Assay: 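Genome-wide fly cell screen for genes dengue virus requires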 (primary screen)
# System: D.Mel-2 cells from Drosophila
# Knock-down reagent: long dsRNA against Drosophila genes
# Challenge: infection with dengue virus type 2; dose and infection time not stated
# Measurement: 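Per well on two replicate plates, imaging gave the percent of cells positive for viral envelope protein, ranked by infection, and a nuclear count of cells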
# Reading the numbers: infection score: higher = more virus-infected cells; cell count: higher = more cells in the well
# Rule for the call: 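Very low infection ranking in both replicate wells (chance probability at most 0.065), then a retest showing infection dropped 1.5-fold or more at p below 0.05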
# Meaning of the calls: active = confirmed: knock-down lowers infection; inactive = not picked or not confirmed
# In all, the deposit lists about 22,000 reagents; this is an unselected part of those with a known target gene and a result. In the full data, 116 (0.52%) are marked active. 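Calls depend on retest data that are not deposited; infection was ranked per plate without normalising between plates; the unit of the infection score is not given.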 Raw values vary from plate to plate and are shown uncorrected. The numbers tell different reagents against one gene apart. Names joined by + are all predicted targets of the reagent. Not given: the amount of reagent, the time to read-out.
gene,dsRNA no.,"infection score, replicate 1","infection score, replicate 2","cell count, replicate 1","cell count, replicate 2",call
CG13460,1,1.93,2.55,6372,6618,inactive
qin,1,12.8,8.6,5943,6103,inactive
CG9967,1,6.76,4.68,5648,6193,inactive
CG9967,2,15.6,5.29,6003,6291,inactive
NPF,1,2.1,5.09,6667,6605,inactive
Acsx2,1,7.9,4.8,3000,5000,inactive
tea,1,23.9,23.1,4271,4500,inactive
tea,2,11.5,2.64,4851,5750,inactive
MRG15,1,19.1,19.2,2657,4439,inactive
CG14490,1,10.2,23.4,6854,5500,inactive
CG14490,2,4.59,5.5,6748,1490,inactive
CG9368,1,5.92,9.19,6287,6376,inactive
CG9368,2,12.1,5.7,6125,6649,inactive
syd,1,5.71,9.94,6675,3140,inactive
syd,2,4.31,1.11,6330,6935,inactive
CG31270 (retired record),1,1.79,10.6,5418,6780,inactive
CG31270 (retired record),2,21.5,20.9,4906,6485,inactive
CG12253,1,22.6,15,5898,6002,inactive
CG12253,2,10.9,28,6647,6124,inactive
CG15394,1,13.2,3.01,6275,6667,inactive
ldbr,1,3.54,4.96,6413,6245,inactive
Mys45A,1,14.6,15.8,3724,5403,inactive
Mys45A,2,3.61,7.43,6100,6214,inactive
CG11586,1,2.05,3.56,5990,6706,inactive
CG11586,2,39.5,17.7,5227,6444,inactive
MED24,1,1.66,0.86,5837,6491,inactive
cg,1,4.02,5.82,7271,7435,inactive
cg,2,5.79,,1209,375,inactive
NimA,1,2.31,1.79,5800,4924,inactive
NimA,2,4.28,5.69,6139,6031,inactive
NimA,3,6.78,7.45,5133,3961,inactive
NimA,4,13,,1859,403,inactive
Hrb87F,1,6.47,11.2,5597,5578,inactive
Hrb87F,2,24.9,16.1,4966,3194,inactive
FucTD,1,2.47,2.14,6353,5945,inactive
TotM,1,15.9,4.63,5893,6700,inactive
aux,1,15,11.4,4727,5703,inactive
aux,2,13.7,6.87,3563,6215,inactive
tara,1,0.78,1.04,6418,6644,inactive
tara,2,16.3,24,2545,4966,inactive
CG32645,1,5.89,7.61,5943,5887,inactive
CG32645,2,14.3,9.25,4445,5493,inactive
CG7849,1,1.35,8.2,6421,6577,inactive
CG7849,2,3.6,1.25,6550,6806,inactive
Diedel3,1,1.45,1,5743,5892,inactive
ALiX,1,7.16,7.66,6764,6721,inactive
ALiX,2,16.1,10,6684,6694,inactive
Aos1,1,6.49,13.2,1788,1512,inactive
Aos1,2,14.8,23.6,4417,4211,inactive
DptA,1,1.37,0.75,6045,6758,inactive
Lk6,1,7.04,2.71,6092,5802,inactive
Lk6,2,19.1,12.8,3801,6152,inactive
Lk6,3,8.94,5.84,6198,5752,inactive
TotX,1,1.44,0.54,6237,6789,inactive
TotX,2,,12.5,338,5664,inactive
CG3842,1,2.27,2.04,6254,6381,inactive
CG3842,2,2.81,4.74,6575,6268,inactive
CG9988,1,3.06,4.98,2840,6632,inactive
CG8066,1,6.53,1.38,6022,6598,inactive
CG8066,2,4.54,8.37,6480,6240,inactive
CG31195,1,1.58,1.99,6080,6138,inactive
CG34164 + RpL7-like,1,26.3,23.8,5083,4799,inactive
CG3868,1,,11.6,286,6328,inactive
BBS4,1,4.09,5.26,5993,6009,inactive
BBS4,2,12.7,3.36,6035,6725,inactive
CG17049 (retired record),1,13.4,16.3,2542,5916,inactive
CR32745,1,2.48,6,6400,6113,inactive
CR32745,2,34.2,15.5,3935,6173,inactive
Gr21a,1,1.76,1.52,6299,6383,inactive
Gr21a,2,,0.32,334,313,inactive
gny,1,3.42,5.16,6471,6821,inactive
Cpr78E,1,1.79,4.71,6161,6269,inactive
CG30089,1,1.23,2.58,6366,7206,inactive
CG30089,2,14.3,16.4,6818,7014,inactive
CG30089,3,1.98,0.97,6271,6593,inactive

Individual results from the list.
Under “cell count, replicate 2”, tara #1 has 6644
Hrb87F #2, call = inactive
For “cell count, replicate 2”, BBS4 #1 is entered as 6009
Diedel3, call → inactive
CG3868, cell count, replicate 1 → 286
Under “cell count, replicate 1”, ALiX #2 reads 6684
